Pooled drug test results. Numbers come from NIAID ChemDB, via PubChem.

Common to all: host cell toxicity; cells: MT-4; measure: CC50

CCn: concentration that lowers growth or viability of the cells by n%.

compound	method	value
Cc1ccnc2c1NC(=O)c1cccnc1N2C1CC1	MTT	20 µM
OCCOCn1c(-c2ccccc2)c(Br)c2ccccc21	-	117 µM
O=C(O)C1=CC(=C(c2ccc(O)c(C(=O)O)c2)c2ccc(O)c(C(=O)O)c2)C=CC1=O	MTT	>250 µg/mL
CC(C)c1s/c(=N\S(=O)(=O)c2cccc([N+](=O)[O-])c2)n(C)c1Cl	MTT	24 µM
C1CNCCNCC(C2CNCCNCCCNCCNC2)CNCCNC1	-	58 µg/mL
COC(=O)[C@H](C)NP(=O)(OC[C@@H]1C=C[C@H](n2cnc3c(N)ncnc32)O1)Oc1ccccc1	-	18 µM
CC(=O)Oc1ccc2ccccc2c1Cc1c(-c2ccccc2)[nH]c2ccccc12	-	19 µM
Cc1ccc(C(=O)N2CCC(NC(=O)c3cc(O)c(O)c(O)c3)CC2)cc1	MTT	29.6 µM
Nc1ncnc2c1ncn2CCOCP(=O)(O)O	-	105 µM
O=C(OC[C@@H]1CC[C@H](n2cnc3c(=O)[nH]cnc32)O1)C(=O)N1CCCC1C(=O)N[C@H](Cc1ccccc1)C(=O)OCc1ccccc1	-	>150 µM
COc1ccc2ccc(OC(C)=O)c(Cc3c(C)[nH]c4ccccc34)c2c1	-	48 µM
Nc1nc(N)c2ncn([C@H]3CC[C@@H](CO)O3)c2n1	-	170.5 µM
Nc1c(-c2ccccn2)n(COCCO)c2ccccc12	-	50 µM
CSc1nc(N)nc2c1ncn2[C@H]1CC[C@@H](CO)O1	-	181.2 µM
COc1ccc(Cc2nccc3cc(OC)c(OC)cc23)cc1OC	MTT	2.7 µg/mL
CC(C)c1s/c(=N\S(=O)(=O)c2cccc([N+](=O)[O-])c2)n(C)c1C#N	MTT	>25 µM
C[C@@H]1[C@H](O)[C@@H](CO)O[C@H]1n1cnc2c(=O)[nH]c(N)nc21	-	>100 µM
CCCN(C)C(=O)Oc1nsnc1-c1c(Cl)ccc(O)c1Cl	-	34 µM
O=C(CSc1nncnc1-c1ccccc1Cl)N1CCc2ccccc2C1	MTT	>38 µM
C/C(=C\C#N)c1cc(C)c(Nc2ccnc(Nc3ccc(C#N)cc3)n2)c(C)c1	MTT	30 µM
COc1ncnc2c1ncn2[C@H]1CC[C@@H](CO)O1	-	179.2 µM
Cc1c(Cc2c(Cl)cccc2Cl)nc(SCc2ccc3c(c2)OCO3)[nH]c1=O	MTT	>57 µM
CN(C)S(=O)(=O)N1CCC(NC(=O)c2cc(O)c(O)c(O)c2)CC1	MTT	34.8 µM
Cc1ccc(NC(=O)CSc2nncnc2-c2ccccc2Cl)c(Br)c1	MTT	45 µM
CC(=O)Oc1ccc2ccccc2c1Cc1c[nH]c2ccc(Br)cc12	-	22 µM
C[C@H](CCC(=O)NCCS(=O)(=O)O)[C@H]1CC[C@H]2[C@@H]3CC[C@@H]4C[C@H](O)CC[C@]4(C)C3CC[C@]12C	MTT	>250 µg/mL
CCCN(C)C(=O)Oc1nsnc1-c1c(Cl)ccc(C(N)=O)c1Cl	-	166 µM
Cc1cc(C)c(S(=O)(=O)N2CCC(NC(=O)c3cc(O)c(O)c(O)c3)CC2)c(C)c1	MTT	19.9 µM
CCC(=O)Oc1ccc2c(C)cc(=O)oc2c1Cc1c(-c2ccccc2)[nH]c2ccccc12	-	38 µM
Cc1cn([C@H]2C[C@H](N=[N+]=[N-])[C@@H](CO)O2)c(=O)[nH]c1=O	MTT	3.7 µM
CC(=O)c1s/c(=N\S(=O)(=O)c2cccc([N+](=O)[O-])c2)n(C)c1C	MTT	>25 µM
Cc1cn([C@H]2C[C@H](N=[N+]=[N-])[C@@H](CO)O2)c(=O)[nH]c1=O	-	162 µg/mL
CC(=O)OCCOCn1c(-c2ccccn2)c(Br)c2ccccc21	-	≥200 µM
CCc1c(C(=O)c2cccc3ccccc23)n(C/C=C/c2ccccc2)c(=O)[nH]c1=O	MTT	28.71 µM
Nc1ccn([C@H]2CC[C@@H](CO)O2)c(=O)n1	MTT	9.6 µg/mL
OCCOCn1c(-c2ccccn2)c(Br)c2ccccc21	-	>200 µM
CCCN(C)C(=O)Oc1nsnc1-c1c(Cl)ccc(C(=O)O)c1Cl	-	>256 µM
C[C@H](Cn1cnc2c(N)ncnc21)OCP(=O)(O)O	-	>300 µM
CO[C@H]1O[C@@H](n2ccc(=O)[nH]c2=O)C[C@@H]1N=[N+]=[N-]	-	>150 µM
COc1cc(CSc2nc(Cc3c(F)cccc3F)c(C)c(=O)[nH]2)cc(OC)c1	MTT	>60 µM
Cn1cc(C(=O)O)c(=O)c2cc(F)c(N3CC=C(c4ccccc4)CC3)c(C(F)(F)F)c21	-	0.5 µM
O=c1[nH]cnc2c1ncn2[C@H]1CC[C@@H](CO)O1	-	>250 µM
Cc1cn([C@H]2C[C@H](N=[N+]=[N-])[C@@H](CO)O2)c(=O)[nH]c1=O	-	150 µM
Cc1c(Cc2c(Cl)cccc2Cl)nc(SCc2ccc(Br)cc2)[nH]c1=O	MTT	13 µM
COc1ccc2ccc(OC(C)=O)c(Cc3c[nH]c4ccc(OC)cc34)c2c1	-	47 µM
c1cc(CN2CCCNCCNCCCNCC2)ccc1CNCCCN1CCOCC1	MTT	>25 µg/mL
O=c1ccc2ccc(O)c(CN3CCN(Cc4c(O)ccc5ccc(=O)oc45)CC3)c2o1	-	20 µM
CC(=O)OCCOCn1cc(C#N)c2ccccc21	-	>200 µM
CC(C)(C)OC(=O)[C@@H]1CCCN1C[C@H](O)[C@H](Cc1ccccc1)NC(=O)[C@H](CC(N)=O)NC(=O)OCc1ccccc1	MTT	>233 µg/mL
O=C(OC[C@@H]1CC[C@H](n2ccc(=O)[nH]c2=O)O1)C(=O)N1CCCC1C(=O)N[C@H](Cc1ccccc1)C(=O)OCc1ccccc1	-	>65 µM
Cc1cn([C@H]2C[C@H](N=[N+]=[N-])[C@@H](CO)O2)c(=O)[nH]c1=O	MTT	29.4 µM
Nc1ccn([C@H]2CC[C@@H](COC(=O)C(=O)N3CCCC3C(=O)N[C@H](Cc3ccccc3)C(=O)OCc3ccccc3)O2)c(=O)n1	-	>150 µM
CCOC(=O)c1ccc(NC(=O)CSc2nncnc2-c2ccccc2Cl)c(Br)c1	MTT	69 µM
CCCN(C)C(=O)Oc1nsnc1-c1c(Cl)ccc(C(=O)OCC)c1Cl	-	25 µM
O=C(CSc1nncnc1-c1ccccc1Cl)Nc1ccccc1	MTT	127 µM
CCCN(C)C(=O)Oc1nsnc1-c1c(Cl)ccc(C#N)c1Cl	-	66 µM
C#CCn1c(C(=O)c2cccc3ccccc23)c(C(C)C)c(=O)[nH]c1=O	MTT	4.1 µM
Cc1cc(C#N)cc(C)c1Nc1ccnc(Nc2ccc(C#N)cc2)n1	MTT	5 µM
CC(C)c1c(C(=O)c2cccc3ccccc23)n(C/C=C/c2ccccc2)c(=O)n(C/C=C/c2ccccc2)c1=O	MTT	≥129 µM
COc1ccc2[nH]cc(Cc3c(OC(C)=O)ccc4cc(Br)ccc34)c2c1	-	20 µM
O=C(CSc1nncnc1-c1ccccc1Cl)Nc1ccc(Cl)cc1Cl	MTT	51 µM
O=C(O)P(=O)(O)O	MTT	166 µg/mL
CCc1c(C(=O)c2cccc3ccccc23)n(CC(=O)OC)c(=O)[nH]c1=O	MTT	168 µM
C1CNCCNCCCN[C@H]([C@H]2CNCCCNCCNCCCN2)CNC1	-	298 µg/mL
CN(C)C(=O)N1CCC(NC(=O)c2cc(O)c(O)c(O)c2)CC1	MTT	34.3 µM
CC(C)c1s/c(=N\S(=O)(=O)c2cccc([N+](=O)[O-])c2)n(C)c1C(F)(F)F	MTT	>25 µM

The last 5 rows once more:

compound,method,value
O=C(O)P(=O)(O)O,MTT,166 µg/mL
CCc1c(C(=O)c2cccc3ccccc23)n(CC(=O)OC)c(=O)[nH]c1=O,MTT,168 µM
C1CNCCNCCCN[C@H]([C@H]2CNCCCNCCNCCCN2)CNC1,-,298 µg/mL
CN(C)C(=O)N1CCC(NC(=O)c2cc(O)c(O)c(O)c2)CC1,MTT,34.3 µM
CC(C)c1s/c(=N\S(=O)(=O)c2cccc([N+](=O)[O-])c2)n(C)c1C(F)(F)F,MTT,>25 µM

Conditions beyond the fields shown may differ between rows. An empty or dashed field is not shown.